Compound potency records, mixed from different reports. Data source: NIAID ChemDB in PubChem.

All rows: tests on isolated targets; organism: HIV-1; protein: Protease; read by: fluorescence; measure: inhibition

An empty or dashed field is not shown.

| SMILES | strain or isolate | dose | result |
|---|---|---|---|
| COC(=O)C[C@H](O)C(CC(C)C)NC(=O)[C@H](C)NC(=O)C[C@H](O)[C@H](Cc1ccc(O)cc1)NC(=O)[C@@H](NC(=O)[C@H](Cc1ccc(O)cc1)NC(=O)OCc1ccccc1)C(C)C |  | 1 µM | 0% |
| CCCC1(Cc2ccccc2)OC(=O)C(C(c2cccc(NS(=O)(=O)c3ccccc3)c2)C(C)C)=C1O |  | 3.3 µM | 100% |
| COc1ccc(CCC(O)c2cnc3sc4c(n23)CCCCC4)cc1 |  | 10 µM | 92% |
| CCCC1(CCC)OC(=O)C(C(c2cccc(NS(=O)(=O)c3cn(C)cn3)c2)C(C)(C)C)=C1O |  | 3.3 µM | 100% |
| OC(CCc1cc(F)cc(F)c1)c1cnc2sc3c(n12)CCCCC3 |  | 10 µM | 99% |
| O=C(/C=C/c1ccc(O)cc1)C1=C(O)/C(=C/c2ccc(O)cc2)CCC1 |  | 10 µM | 55.5% |
| CCCC1(CCC)OC(=O)C(C(c2cccc(NS(=O)(=O)c3ccc(F)cc3)c2)C2CC2)=C1O |  | 3.3 µM | 100% |
| CC(C)(C)NC(=O)c1ccccc1C[C@@H](O)[C@H](Cc1ccccc1)NC(=O)[C@@H](CSCc1ccccc1)NC(=O)OC(C)(C)C |  | 1 µg/mL | 3% |
| OC(CCCCc1ccccc1)c1cnc2sc3c(n12)CCCCC3 |  | 3.3 µM | 98% |
| CC(C)(C)NC(=O)c1ccccc1C[C@@H](O)[C@H](Cc1ccccc1)NC(=O)[C@H](N)CSCc1ccccc1 |  | 1 µg/mL | 16% |
| OC(CCc1cccc(Br)c1)c1cnc2sc3c(n12)CCCCC3 |  | 10 µM | 89% |
| O=C1OC(CCCc2ccccc2)(CC2CC2)C(O)=C1C(c1ccccc1)C1CC1 |  | 0.37 µM | 100% |
| Cc1c(O)cccc1C(=O)N[C@@H](Cc1ccccc1)[C@H](O)C(=O)N1CSC(C)(C)[C@H]1C(=O)NCCN1CCOCC1 | NL4-3 | 0.064 µM | 13% |
| CCCC1(CCC)OC(=O)C(C(c2cccc([N+](=O)[O-])c2)C2CC2)=C1O |  | 3.3 µM | 100% |
| OC(CCc1ccccc1)c1cnc2sc3c(n12)CCCCCC3 |  | 3.3 µM | 88% |
| CCCC1(Cc2ccccc2)OC(=O)C(C(c2cccc(NS(=O)(=O)c3ccc(C#N)cc3)c2)C(C)C)=C1O |  | 3.3 µM | 100% |
| CC(=O)N[C@@H](CSCc1ccccc1)C(=O)N[C@@H](Cc1ccccc1)[C@H](O)Cc1ccccc1C(=O)NC(C)(C)C |  | 1 µg/mL | 12% |
| O=C(CCCO)N1C[C@@H](O)[C@@H](Cc2ccccc2)N(Cc2ccc(O)cc2)C(=O)N1Cc1ccc(O)cc1 |  | 0.0005 µM | 41% |
| CC(C)(C)NC(=O)c1ccccc1C[C@@H](O)[C@H](Cc1ccccc1)NC(=O)[C@H](Cc1ccccc1)NC=O |  | 1 µg/mL | 8% |
| CCCC1(CCC)OC(=O)C(C(c2cccc(NS(=O)(=O)c3nnnn3-c3ccccc3)c2)C2CC2)=C1O |  | 3.3 µM | 100% |
| CC(=O)N1C[C@@H](O)[C@@H](Cc2ccccc2)N(Cc2ccc(O)cc2)C(=O)N1Cc1ccc(O)cc1 |  | 0.0005 µM | 60% |

The last 2 rows once more:

| SMILES | strain or isolate | dose | result |
|---|---|---|---|
| CCCC1(CCC)OC(=O)C(C(c2cccc(NS(=O)(=O)c3nnnn3-c3ccccc3)c2)C2CC2)=C1O |  | 3.3 µM | 100% |
| CC(=O)N1C[C@@H](O)[C@@H](Cc2ccccc2)N(Cc2ccc(O)cc2)C(=O)N1Cc1ccc(O)cc1 |  | 0.0005 µM | 60% |

Percent inhibition refers to the dose given; in toxicity tests it is the harm to the cells. Rows are shuffled and stem from different studies.